Here are results for one substance from article PMC5061470, “Promiscuous targeting of bromodomains by bromosporine identifies BET proteins as master regulators of primary transcription response in leukemia” (Science Advances, 2016).

Protein sequences, listed by entry. Tags and fused reporters are not part of them. Residues count along the entry.
UniProt P02708, 21-457: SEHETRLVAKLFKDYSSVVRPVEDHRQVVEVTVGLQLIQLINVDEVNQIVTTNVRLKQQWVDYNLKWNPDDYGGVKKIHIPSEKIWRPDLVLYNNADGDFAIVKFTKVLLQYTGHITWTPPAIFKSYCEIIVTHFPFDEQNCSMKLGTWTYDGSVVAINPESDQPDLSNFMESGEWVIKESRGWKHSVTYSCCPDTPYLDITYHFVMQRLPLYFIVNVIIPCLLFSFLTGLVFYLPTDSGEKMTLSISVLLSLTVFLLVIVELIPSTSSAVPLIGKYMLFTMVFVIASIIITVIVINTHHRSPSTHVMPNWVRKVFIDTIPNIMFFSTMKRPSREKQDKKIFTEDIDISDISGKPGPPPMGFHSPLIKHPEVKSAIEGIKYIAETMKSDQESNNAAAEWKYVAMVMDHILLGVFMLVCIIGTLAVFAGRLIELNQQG
UniProt P07510, 23-517: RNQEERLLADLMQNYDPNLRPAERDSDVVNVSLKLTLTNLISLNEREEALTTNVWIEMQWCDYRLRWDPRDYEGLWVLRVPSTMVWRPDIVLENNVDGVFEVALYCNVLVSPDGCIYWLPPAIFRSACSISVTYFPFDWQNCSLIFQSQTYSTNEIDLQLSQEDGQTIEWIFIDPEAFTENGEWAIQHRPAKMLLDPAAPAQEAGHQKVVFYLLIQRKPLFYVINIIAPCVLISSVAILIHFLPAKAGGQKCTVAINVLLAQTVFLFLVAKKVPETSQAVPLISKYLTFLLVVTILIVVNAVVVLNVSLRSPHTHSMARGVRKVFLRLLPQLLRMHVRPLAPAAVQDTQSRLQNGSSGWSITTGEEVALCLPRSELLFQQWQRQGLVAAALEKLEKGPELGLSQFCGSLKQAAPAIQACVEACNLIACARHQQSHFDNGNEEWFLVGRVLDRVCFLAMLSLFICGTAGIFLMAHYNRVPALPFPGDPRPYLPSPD
UniProt Q07001, 22-517: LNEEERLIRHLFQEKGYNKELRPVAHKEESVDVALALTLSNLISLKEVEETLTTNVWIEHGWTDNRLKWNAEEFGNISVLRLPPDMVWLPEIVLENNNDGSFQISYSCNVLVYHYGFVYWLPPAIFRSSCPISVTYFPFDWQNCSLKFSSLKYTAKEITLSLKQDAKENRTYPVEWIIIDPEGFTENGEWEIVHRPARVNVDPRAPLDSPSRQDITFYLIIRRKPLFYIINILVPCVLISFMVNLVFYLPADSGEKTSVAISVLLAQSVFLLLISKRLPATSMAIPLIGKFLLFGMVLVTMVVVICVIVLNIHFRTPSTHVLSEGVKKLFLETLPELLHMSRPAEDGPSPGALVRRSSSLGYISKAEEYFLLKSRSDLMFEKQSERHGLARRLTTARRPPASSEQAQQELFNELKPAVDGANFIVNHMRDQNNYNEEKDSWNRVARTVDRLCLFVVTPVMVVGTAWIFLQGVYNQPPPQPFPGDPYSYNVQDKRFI

For orientation: IC50 means the midpoint of a concentration-inhibition curve. Higher therefore signals a need for much substance. Broadly, the Ki is the equilibrium dissociation constant of an inhibitor or competing ligand from its target.

The target of the assay is N muscle-type (h) (Homo sapiens, UniProt P02708+P07510+Q07001). Format: binding.

In the case of alpha -bungarotoxin, the 50% inhibitory concentration (IC50) is 3.2 nM. Besides, the Ki (read-out: Ki Ref.) was 3 nM.
